Test results from article PMC8445433, “Broadly directed SARS-CoV-2-specific CD4+ T cell response includes frequently detected peptide specificities within the membrane and nucleoprotein in patients with acute and resolved COVID-19” (PLoS Pathogens, 2021).

The chains behind the UniProt entries cited, without tags or fusion partners. Residues count along the entry.
UniProt P79483, 30-266 R40L/Y55F/D57E/Y59H/F66Y/L67A/T80R/V86D/S89Y/R103Q/A212P/R218S limits assumed: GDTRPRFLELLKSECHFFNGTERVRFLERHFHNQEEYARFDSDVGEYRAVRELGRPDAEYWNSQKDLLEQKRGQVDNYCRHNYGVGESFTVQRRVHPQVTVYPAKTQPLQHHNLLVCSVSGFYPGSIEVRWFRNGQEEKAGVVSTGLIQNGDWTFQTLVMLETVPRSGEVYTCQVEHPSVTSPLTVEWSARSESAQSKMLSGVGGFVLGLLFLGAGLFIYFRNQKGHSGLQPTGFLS

Columns and labels:
Experiment in all cases: biochemical
[1] = molecular target: DQA1*01:01 DQB1*05:01 (Homo sapiens, UniProt P01909+P01920, A157S/A45G/A70V/C70R/D89V/E106S/E118A/E183D/E77G/F83G/G63E/H151Q/H199R/H252R/H253Q/I129T/I235V/I88M/INS77G/K197Q/L107V/L117V/L119Y/L178F/L71W/L74F/L85Q/L91A/L98M/M46L/N214S/P87R/Q116E/Q256R/Q57E/Q76K/R102G/R240Q/R75S/R78G/S102Y/S185I/S41F/S97I/T103A/T109R/T121G/T122I/T172A/T86R/V148I/V68A/V73E/Y34C/Y58G/Y62H); assay type: binding
[2] = molecular target: DQA1*03:01 DQB1*03:02 (Homo sapiens, UniProt P01909+P01920, A209T/A45G/C70Q/D89A/DUP78-78/E183D/E77G/F237L/G63E/H199R/I129T/K197E/L178F/L74F/L98V/Q57E/Q76R/S185I/S97I/T217I/T49S/V73L/Y58L); assay type: binding
[3] = molecular target: DRB1*07:01 (Homo sapiens, UniProt P01903+P01911, A100R/A102G/A103Q/D57E/D86V/E43K/F76Y/K127E/L162R/M171V/P40G/Q125H/Q99D/R33Q/R42Y/R54Q/S133A/S66F/T210M/V115G/Y107V/Y59L/Y89S); assay type: binding
[4] = molecular target: DRB1*13:02 (Homo sapiens, UniProt P01903+P01911, A100E/A169T/K41T/L162R/M171V/P40S/Q125H/Q178H/Q39Y/Q99D/R42S/S66N/T262R/V115G/W38E/Y61H); assay type: binding
[5] = molecular target: DRB1*04:01 (Homo sapiens, UniProt P01903+P01911, A100K/A169T/F76Y/I96L/K127E/L162R/M171V/N62H/P40V/Q125Y/R42H/S133A/S149N/S66Y/V115G/V209L/W38E); assay type: binding
[6] = molecular target: DRB1*08:02 (Homo sapiens, UniProt P01903+P01911, A100R/A103L/A169T/F76Y/H45Y/I96F/K41T/L162R/M171V/P40S/Q125H/Q178H/Q39Y/Q99D/R218S/R42G/S66Y/V115G/W38E); assay type: binding
[7] = molecular target: DRB3*02:02 (Homo sapiens, UniProt P01903+P79483, A212P/D57E/F66Y/L67A/R103Q/R218S/R40L/S89Y/T80R/V86D/Y55F/Y59H); assay type: binding
[8] = molecular target: DRB1*09:01 (Homo sapiens, UniProt P01903+P01911, A100R/A103E/D57H/D86V/F55Y/F60I/F76Y/I96F/K127E/L162R/M171V/P40D/Q125H/Q99R/R33Q/R42F/S133A/S66N/T210M/V115G/W38K/Y107V/Y59G/Y89S); assay type: binding
[9] = molecular target: DQA1*05:01 DQB1*02:01 (Homo sapiens, UniProt P01909+P01920, A45G/A70V/D89A/E106A/E77G/E98D/H199R/L107V/N214S/P84L/P87L/T103K/T109R/T172A/T60S/V78E/V99I/Y58L/Y62S/Y69I/Y79F)
[10] = molecular target: DRB1*12:01 (Homo sapiens, UniProt P01903+P01911, A100R/A169T/D57E/D86V/F55L/H45Y/K41T/L162R/M171V/P40S/Q125H/Q178H/Q39Y/Q99D/R42G/S66L/T262R/V114A/V67L/W38E/Y59H/Y61H/Y89S); assay type: binding
[11] = molecular target: DRB4*01:01 (Homo sapiens, UniProt P01903+P13762, G164S); assay type: binding
[12] = molecular target: DRB1*01:01 (Homo sapiens, UniProt P01903+P01911, A100R/D57E/F55L/F60I/F76Y/I96L/L162R/M171V/P40L/Q125E/R42F/V115G/Y59C); assay type: binding
[13] = molecular target: DRB1*04:05 (Homo sapiens, UniProt P01903+P01911, A100R/A169T/D86S/F76Y/I96L/K127E/L162R/M171V/N62H/P40V/Q125Y/R42H/S133A/S149N/S66Y/V115G/V209L/W38E); assay type: binding
[14] = molecular target: DRB1*03:01 (Homo sapiens, UniProt P01903+P01911, A100K/A102G/A103R/A169T/F55Y/I96L/K41T/L162R/M171V/P40S/Q125H/Q178H/Q39Y/R42S/S66N/T106N/T262R/W38E/Y61H); assay type: binding
[15] = molecular target: DQA1*01:02 DQB1*06:02 (Homo sapiens, UniProt P01909+P01920, A157G/A45G/C70R/E118A/E183D/E77G/F83G/G63E/H151Q/H199R/H252R/H253Q/I129T/I235V/I88M/INS77G/K197Q/L117V/L119F/L178F/L71W/L74F/L85Q/L91A/L98M/N214S/P87R/Q116E/Q76K/R102G/R240Q/R75S/R78G/S102Y/S185I/S41F/S97I/T121G/T122I/T172A/T86R/V229M/V68A/V73E/Y34C/Y41F/Y58L); assay type: binding
[16] = molecular target: HLA-DRB1*11:01 (Homo sapiens, UniProt P01903+P01911, A100R/A169T/A87E/I96F/K41T/L162R/M171V/P40S/Q125H/Q178H/Q39Y/Q99D/R42S/S66Y/T262R/V115G/W38E); assay type: binding

Structure (SMILES): CC(C)[C@H](NC(=O)[C@H](CC(N)=O)NC(=O)[C@H](Cc1ccc(O)cc1)NC(=O)[C@H](C)NC(=O)[C@@H](N)CCCCN)C(=O)N[C@H](C(=O)N[C@@H](CCC(N)=O)C(=O)N[C@@H](C)C(=O)N[C@@H](Cc1ccccc1)C(=O)NCC(=O)N[C@@H](CCCNC(=N)N)C(=O)N[C@@H](CCCNC(=N)N)C(=O)NCC(=O)N1CCC[C@H]1C(=O)N[C@@H](CCC(=O)O)C(=O)O)[C@@H](C)O [Ncl_54]
- pIC50 [1]: < 4.40
- pIC50 [2]: 4.48
- pIC50 [3]: 7.54
- pIC50 [4]: 5.17
- pIC50 [5]: 6.19
- pIC50 [6]: 6.41
- pIC50 [7]: 5.44
- pIC50 [8]: 6.98
- pIC50 [9]: < 4.40
- pIC50 [10]: < 4.40
- pIC50 [11]: 5.60
- pIC50 [12]: 7.92
- pIC50 [13]: 4.93
- pIC50 [14]: < 4.40
- pIC50 [15]: 5.53
- pIC50 [16]: 6.71

pIC50: −log10 of the molar value.
